As a reminder, the Ki is the dissociation constant of the complex between target and ligand, obtained from inhibition or displacement. The term EC50 denotes the concentration that produces a half-maximal response.

Protein sequences, listed by entry. Tags and fused reporters are not part of them. Residues count along the entry.
UniProt P27958, 1027-1657 limits assumed: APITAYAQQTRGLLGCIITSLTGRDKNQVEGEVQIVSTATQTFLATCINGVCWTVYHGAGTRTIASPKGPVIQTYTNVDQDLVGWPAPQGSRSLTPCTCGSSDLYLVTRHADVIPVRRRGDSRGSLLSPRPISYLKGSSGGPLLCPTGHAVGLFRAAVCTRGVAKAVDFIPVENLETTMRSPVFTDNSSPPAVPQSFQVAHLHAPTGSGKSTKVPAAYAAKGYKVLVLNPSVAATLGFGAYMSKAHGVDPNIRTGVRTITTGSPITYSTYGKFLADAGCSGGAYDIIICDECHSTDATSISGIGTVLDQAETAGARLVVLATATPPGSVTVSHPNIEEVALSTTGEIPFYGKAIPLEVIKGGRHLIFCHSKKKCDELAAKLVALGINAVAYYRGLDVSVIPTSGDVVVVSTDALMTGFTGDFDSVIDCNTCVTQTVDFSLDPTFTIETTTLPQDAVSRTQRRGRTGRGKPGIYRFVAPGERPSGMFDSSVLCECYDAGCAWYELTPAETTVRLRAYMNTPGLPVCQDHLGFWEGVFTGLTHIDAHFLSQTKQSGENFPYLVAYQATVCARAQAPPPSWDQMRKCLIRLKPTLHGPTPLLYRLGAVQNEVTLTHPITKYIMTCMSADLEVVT

For assay [1], the target named is HCV NS3/4A protease complexes (full-length hepatitis C NS3 protease enzyme with NS4A cofactor) (Hepatitis C virus genotype 1a, UniProt P27958). Put plainly: Inhibition assay (enzymatic assay, depsipeptide substrate hydrolysis). The conditions noted are these: read-out: Ki (nM) Enzymatic assay; enzyme 1 nM, 25 μM NS4A cofactor, 0.5 μM substrate, 30° C., competitive inhibition model, Km 0.15 μM.

In assay [2] the test system is HCV replicons (NS3-NS5B regions of HCV type 1b) in Huh-7 luc/neo (Huh-Luc) cells. Put plainly: Replicon assay (HCV RNA replication, luciferase readout). The settings on record: read-out: EC50 (μM) Replicon assay, incubation of three days, luciferase activity. (Replicon systems follow genome replication, usually without infectious particles.)

For the compound `CN1CCCC/C=C\[C@@H]2C[C@@]2(C(=O)NS(=O)(=O)C2CC2)NC(=O)[C@@H]2C[C@@H](OC(=O)N3CCCc4ccccc43)C[C@H]2C1=O`, the Ki in assay [1] stood at 62 nM. Besides, the EC50 in assay [2] was more than 10 µM.

For `CN1CCCC/C=C\[C@@H]2C[C@@]2(C(=O)NS(=O)(=O)C2CC2)NC(=O)[C@@H]2C[C@@H](OC(=O)N3Cc4ccccc4C3)C[C@H]2C1=O`, the Ki in assay [1] is 5.1 nM. Also, in assay [2], the EC50 stood at 0.809 µM.

Regarding `CN1CCCC/C=C\[C@@H]2C[C@@]2(C(=O)NS(=O)(=O)C2CC2)NC(=O)[C@@H]2C[C@@H](OC(=O)N3CCc4ccccc4C3)C[C@H]2C1=O`, the Ki in assay [1] was 24 nM. Moreover, the EC50 in assay [2] is more than 10 µM.

For `CN1CCCC/C=C\[C@@H]2C[C@@]2(C(=O)NS(=O)(=O)C2CC2)NC(=O)[C@@H]2C[C@@H](OC(=O)N3CCOc4ccccc43)C[C@H]2C1=O`, the Ki in assay [1] stood at 12 nM. The EC50 in assay [2] is more than 10 µM.
